Results of unrelated studies side by side (data: NIAID ChemDB).

Shared fields: growth or infection tests; agent: Influenza A virus; read-out: EC50

Lines come from different laboratories, so protocols vary. ECn is the concentration giving n% inhibition of infection, replication or growth. An empty or dashed field is not shown. Two numbers with a dash give a range or band.

structure	strain	cell line	method	value
Nc1nc(Cl)cc(NC2(CO)CCC2)n1	H1N1 A/PR/8/34	MDCK	plaque count	>440 µM
CCC	USSR/90/77 (H1)	MDCK	-	>50 µM
CCC(CC)O[C@@H]1C=C(C(=O)O)C[C@H](N)[C@H]1NC(C)=O	H1N1 A/FM/1/47	MDCK	plaque count	0.024 µM
Nc1nc2c(ncn2[C@@H]2O[C@H](CO)[C@@H](O)[C@H]2F)c(=O)[nH]1	H1N1 A/Sweden/3/50	CEF	plaque count	0.5 µM
NSc1ncnc2c1ncn2[C@H]1C[C@H](O)[C@@H](CO)O1	-	-	cytopathic effect	>320 µM
C/C=C\[C@@H]1C[C@H](C(=O)O)N[C@H]1[C@@H](NC(C)=O)[C@](C)(CCC)OC	H1N1 isolate C31D	MDCK	plaque count	≤0.02 µg/mL
Nc1nc(Cl)cc(NCC2(CO)CC(O)C2)n1	H1N1 A/PR/8/34	MDCK	plaque count	>120 µM
CC(=O)O[C@H]1CC[C@@]23Oc4c(c(O)cc5c4CNC5=O)C[C@]2(C)[C@@H](C)CC[C@H]3C1(C)C	H1N1 A/WSN/33	MDBK	-	0.23 µM
NS(=O)c1ncnc2c1ncn2[C@@H]1O[C@H](CO)[C@@H](O)[C@@H]1O	-	-	cytopathic effect	>320 µM
CCC(CC)[C@H](NC(C)=O)[C@@H]1[C@H](O)[C@@H](C(=O)O)C[C@H]1N=C(N)N	H3N2 A/X-31	MDCK	-	0.01 µM
NS(=O)(=O)c1ncnc2c1ncn2[C@H]1C[C@H](O)[C@@H](CO)O1	-	-	cytopathic effect	>320 µM
Nc1ncc(Br)c(NCC2(CO)CC(CCc3ccccc3)C2)n1	H1N1 A/PR/8/34	MDCK	plaque count	0.026–0.2 µM
CCCC(CCC)C(NC(C)=O)C1CC(C(=O)O)CC1N=C(N)N	Influenza A/Sydney/05/97 (H3N2)	MDCK	-	0.22 µM
COc1ncc2ncn([C@@H]3O[C@H](CO)[C@@H](O)[C@H]3F)c2n1	Recombinant A/X31	CEF	virus yield	1.2 µM
C[C@H]1CC[C@H]2C(C)(C)C(=O)CC[C@]23Oc2c(c(O)cc4c2C(=O)NC4=O)C[C@]13C	H1N1 A/WSN/33	MDBK	-	0.006 µM
CC1(C)Oc2cc(O)c(C(=O)/C=C/c3ccccc3)c(O)c2CC1O	Panama	-	-	100 µg/mL
CC(=O)O[C@H]1CC[C@@]23Oc4c(c(OCc5ccccc5)cc5c4CNC5=O)C[C@]2(C)[C@@H](C)CC[C@H]3C1(C)C	H1N1 A/WSN/33	MDBK	-	>12 µM
Nc1nccc(NCC2(CO)CCC2)n1	H1N1 A/PR/8/34	MDCK	plaque count	300 µM
CC(N)C12CC3CC(CC(C3)C1)C2	Influenza A/Guizhou/54/89 (H3N2)	MDCK	ELISA	0.018 µg/mL
Nc1nc(Cl)cc(NCC2(CO)CC2)n1	H1N1 A/PR/8/34	MDCK	plaque count	>440 µM
CC(=O)O[C@H]1CC[C@@]23Oc4c(c(O)c(Cl)c5c4CNC5=O)C[C@]2(C)[C@@H](C)CC[C@H]3C1(C)C	H1N1 A/WSN/33	MDBK	-	3.5 µM
COC1(OC)CC(CO)(CNc2cc(Cl)nc(N)n2)C1	H1N1 A/PR/8/34	MDCK	plaque count	>99 µM
COc1nc2c(nc(N)n2[C@@H]2O[C@H](CO)[C@@H](O)[C@H]2F)c(=O)[nH]1	Recombinant A/X31	CEF	virus yield	0.4 µM
Nc1nc(Cl)c(N)c(NCC2(CO)CC(Cc3ccccc3)C2)n1	H1N1 A/PR/8/34	MDCK	plaque count	0.12–0.17 µM
CCC(CC)[C@H](NC(C)=O)[C@@H]1[C@H](O)[C@@H](C(=O)O)C[C@H]1N=C(N)N	H3N2 A/X-31	MDCK	visual reading	0.01 µM
Nc1nc2c(=O)[nH]c(Cl)nc2n1[C@@H]1O[C@H](CO)[C@@H](O)[C@H]1F	Recombinant A/X31	CEF	virus yield	0.1 µM
Nc1nccc(NCC2(CO)CC(Cc3ccccc3)C2)n1	H1N1 A/PR/8/34	MDCK	plaque count	4–13 µM

Again, the opening 4 rows:

structure	strain	cell line	method	value
Nc1nc(Cl)cc(NC2(CO)CCC2)n1	H1N1 A/PR/8/34	MDCK	plaque count	>440 µM
CCC	USSR/90/77 (H1)	MDCK	-	>50 µM
CCC(CC)O[C@@H]1C=C(C(=O)O)C[C@H](N)[C@H]1NC(C)=O	H1N1 A/FM/1/47	MDCK	plaque count	0.024 µM
Nc1nc2c(ncn2[C@@H]2O[C@H](CO)[C@@H](O)[C@H]2F)c(=O)[nH]1	H1N1 A/Sweden/3/50	CEF	plaque count	0.5 µM